According to ChEMBL document CHEMBL4303097, “In vitro screening of a FDA approved chemical library reveals potential inhibitors of SARS-CoV-2 replication” (2020):

Test system: SARS-CoV-2
Assay: Inhibition of cell viability relative to arbidol control (inhibition index > 1 indicates higher activity) measured by fluorescence (OD590nm) in Vero E6 cells infected with SARS-CoV-2 (strain BavPat1) at MOI 0.002 after 72hrs
Format: functional
Settings: Chlorocebus sabaeus; Vero C1008

COLISTIN SULFATE
Inhibition index: 0.0365
